Source: US5968513A (priority 1996, dated 1999)

System: HIV-1
Assay type: in vivo, human
Conditions: for CD4/mm^3 Rx (post treatment with hCG): M = month from enrollment, weekly dose 12,500-70,000 IU; for Viral Load Rx (post treatment with hCG), NASBA: lower detection limit 4,000 copies
[1] = individual patients, listed as A
[2] = individual patients, listed as P

hCG (APL): commercially available partially purified hCG preparation APL, Wyeth Ayerst
CD4/mm^3 Rx (post treatment with hCG) [1]: 170 /mm^3 and 48 /mm^3 and 424 /mm^3 and 21 /mm^3 and 213 /mm^3 and 678 /mm^3 and 218 /mm^3 and 86 /mm^3 and 361 /mm^3 and 46 /mm^3 and 483 /mm^3
Viral Load Rx (post treatment with hCG), Roche Amplicor (individual patients, Roche Amplicor, lower detection limit 200 copies, listed as A): 1,700 copies and 40,000 copies and 55,000 copies and 98,000 copies and 22,313 copies and 6,777 copies and 200 copies and 22,510 copies
Weight gain [1]: -0.9 Kg and +1.8 Kg and +1.4 Kg and +3.2 Kg and +4.5 Kg and +2.3 Kg and -5.0 Kg and +5.4 Kg and +10.0 Kg

Human Chorionic Gonadotropin [hCG]
toxicity / tolerability in patients (hCG therapy of HIV-infected patients): well tolerated; also recorded: cholestasis was exacerbated; also recorded: liver toxicity may be a rare complication
CD4/mm^3 Rx (post treatment with hCG) (individual patients): 160 /mm^3 and 204 /mm^3 and 424 /mm^3
Viral Load Rx (post treatment with hCG), NASBA (individual patients): 11,000 copies and 700,000 copies and less than 4000 copies and undetectable
Viral Load Rx (post treatment with hCG), RT-PCR (individual patients, RT-PCR, lower detection limit 100 copies): 2500 copies and 500 copies

Pregnyl: commercial hCG preparation Pregnyl, Organon
CD4/mm^3 Rx (post treatment with hCG) [2]: 160 /mm^3 and 204 /mm^3 and 3 /mm^3 and 35 /mm^3 and 17 /mm^3 and < 5 /mm^3 and 505 /mm^3 and 89 /mm^3 and 5 /mm^3 and 202 /mm^3 and 10 /mm^3 and 72 /mm^3 and 14 /mm^3 and 12 /mm^3
Viral Load Rx (post treatment with hCG), NASBA [2]: 11,000 copies and 150,000 copies and < 4000 copies and 300,000 copies
Weight gain [2]: +6 Kg and +3 Kg and +2 Kg and +1 Kg and -3 Kg and 0 Kg and +1.5 Kg

Where “and” joins values, the source holds several entries; their conditions need not be identical. Equal entries are not always repeated. Entries after “also recorded” stand apart in the source; their conditions may differ. Where two headings read alike, the source gives them in different places.
